Laboratory results from patent US20100261751A1, “METHOD FOR D[…] OF THE TWO HUMAN IMMUNODEFICIENCY VIRUS (HIV) INTEGRASE ENZYMATIC […]” (priority 2007, published 2010).

Target: HIV integrase (Human immunodeficiency virus type 1 group M subtype B, UniProt P04585)
Assay: 3dQ assay: HIV integrase 3′-end processing fluorescence in vitro assay
Format: biochemical
Conditions: read-out: IC50s, 150 nM integrase, 100 nM LEDGF, 50 nM Q-probe, 2 hrs at 37° C.

O=C(NCc1ccc(F)cc1)c1nc(N2CCCCS2(=O)=O)c2cccnc2c1O
IC50: 1 µM
